Measurements taken from PMC2912912 (BMC Structural Biology, 2010).

Target: the molecule itself
Experiment: SEC

Row | Protein | stoichiometry N
1 | IpgC^10-155 Ala^94Glu/Val^95Gln double mutant (domain or fragment) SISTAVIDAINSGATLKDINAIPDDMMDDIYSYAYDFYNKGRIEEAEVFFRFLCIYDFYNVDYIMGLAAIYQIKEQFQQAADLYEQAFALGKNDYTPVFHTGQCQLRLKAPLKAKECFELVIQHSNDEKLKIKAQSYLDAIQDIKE | 2
2 | IpgC^1-151 Ala^94Glu/Val^95Gln double mutant (domain or fragment) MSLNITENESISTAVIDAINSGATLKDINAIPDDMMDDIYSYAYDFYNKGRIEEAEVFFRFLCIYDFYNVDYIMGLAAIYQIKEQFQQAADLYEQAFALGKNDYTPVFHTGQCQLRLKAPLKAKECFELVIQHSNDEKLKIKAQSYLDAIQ | 2
